From article PMC9052158, “Mycobacterium tuberculosis encodes a YhhN family membrane protein with lysoplasmalogenase activity that protects against toxic host lysolipids” (The Journal of Biological Chemistry, 2022)

The chains behind the UniProt entries cited, without tags or fusion partners. Where a name states a change or a piece, a line headed by the entry shows the natural chain unless it says otherwise.
UniProt P9WG51: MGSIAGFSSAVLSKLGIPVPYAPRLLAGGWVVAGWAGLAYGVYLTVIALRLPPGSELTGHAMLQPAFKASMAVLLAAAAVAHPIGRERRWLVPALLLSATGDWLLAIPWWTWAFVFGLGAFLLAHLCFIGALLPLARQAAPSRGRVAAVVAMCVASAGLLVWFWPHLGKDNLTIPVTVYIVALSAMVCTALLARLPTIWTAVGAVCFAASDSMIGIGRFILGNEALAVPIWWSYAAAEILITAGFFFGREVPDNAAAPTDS

What was measured:
[1] = test system: CCCCCCCCCCCCCC/C=C\OC[C@@H](O)COP(=O)(O)OCCN; assay: purified protein; conditions: pH 7.1
[2] = test system: CCCCCCCCCCCCCC/C=C\OC[C@@H](O)COP(=O)([O-])OCC[N+](C)(C)C; assay: purified protein; conditions: pH 7.1
MtbYhhN (261-aa protein) = biological target: T1, MtbYhhN (261-aa protein) (Mycobacterium tuberculosis, UniProt P9WG51)
T1 construct: gene Rv1401

Substance | Km [1] [µM] | Km [2] [µM] | Ki (MtbYhhN (261-aa protein)) [µM]
MtbYhhN (261-aa protein) (Mycobacterium tuberculosis H37Rv) | 89.4 | 76.9 | –
lysophosphatidic acid [LPA] | – | – | 90 to 100
